PubChem BioAssay AID1259414 – Drosophila RNAi Screening Center, 2018
In all, the deposit lists about 24,000 reagents; shown is an unselected part of those that have a named target and a result. Over the whole deposit, about 1,210 (5%) were called active. 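Inactive calls also include excluded dsRNAs with several or no targets, genes unexpressed in JW18, and well A1, regardless of score.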 The numbers tell different reagents against one gene apart. Names joined by + are all predicted targets of the reagent.

Test: 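Host factors increasing or decreasing Wolbachia levels in cultured fly cells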 (primary screen)
System: Drosophila JW18 cells infected with Wolbachia
Knock-down reagent: long dsRNA against Drosophila genes, 0.25 µg dsRNA per well of a 384-well plate
Duration: 5 days
Treatment: cells persistently infected with Wolbachia before knock-down; no added drug
Read-out: 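Automated imaging of bacterial rRNA staining divided by host cell count, reported as plate-normalised robust z-score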
Scale: Wolbachia per cell robust z: higher = more Wolbachia per host cell than the plate typical
Call rule: 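Active if absolute robust z reaches 1.5 in two or more of three replicates, leaving out multi- or no-target dsRNAs, genes unexpressed in JW18 and A1 wells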

target	reagent	Wolbachia per cell robust z, rep 1	Wolbachia per cell robust z, rep 2	Wolbachia per cell robust z, rep 3	call
Ptp10D	1	-0.699	-1.38	-0.1	inactive
Ptp10D	2	-1.28	-1.11	-0.78	inactive
CG8372	1	0.414	-0.343	-0.777	inactive
CG10591	1	-0.968	0.436	-0.314	inactive
CG10591	2	0.821	0.651	-0.235	inactive
CG5131	1	-1.32	-6.6	-0.0681	inactive
Diedel3	1	-0.202	-1.75	-3.33	inactive
Cerk	1	0.496	-5.25	0.462	inactive
Smvt	1	-2.17	-1.57	0.35	inactive
CycT	1	1.5	3.28	-0.728	active
CycT	2	0.695	1	-0.264	inactive
CycT	3	2.1	1.8	3.17	active
CG6893	1	-4.1	-0.457	1.31	inactive
asRNA:Eig63F-2	1	1.3	0.244	-0.207	inactive
Tak1	1	-1.12	-0.194	-1.22	inactive
Tak1	2	-0.935	-1.25	-3.15	inactive
Tak1	3	-0.26	-0.0216	-7.9	inactive
nrv2	1	0.858	0.327	-1.45	inactive
nrv2	2	-6.67	-0.822	-0.417	inactive
nrv2	3	-2.85	-0.407	0.383	inactive
CG4892	1	-0.627	-1.17	-0.44	inactive
Mov10	1	-1.87	-0.595	1.8	inactive
Vha16-5	1	-3.3	-0.61	-1.02	inactive
sano	1	-0.551	-1.11	-0.525	inactive
sano	2	0.53	1.06	0.0845	inactive
Aladin	1	1.34	0.783	0.578	inactive
Aladin	2	-2.63	-1.64	-1.28	active
CG13590	1	-2.82	0.0266	0.552	inactive
CG13590	2	0.14	0.235	-0.116	inactive
Muc55B	1	-0.802	-1.32	-1.28	inactive
Muc55B	2	1.37	1.04	0.372	inactive
Nup37	1	0.191	-1.63	-0.101	inactive
CG15877	1	-2.45	0.179	0.584	inactive
l(2)efl	1	0.231	-7.85	-0.97	inactive
Ir94c	1	0.406	1.17	-0.912	inactive
lectin-46Ca	1	-0.728	-4.08	-1.59	inactive
lectin-46Ca	2	-0.0596	1.14	1.02	inactive
CG32087	1	0.304	-0.211	-1.16	inactive
CG32087	2	0.631	1.76	2.77	inactive
PpV	1	-0.397	0.224	0.559	inactive
PpV	2	-1.33	-0.235	-2	inactive
PpV	3	0.615	-4.3	0.0132	inactive
kek1	1	0.437	0.382	0.277	inactive
kek1	2	-0.655	-0.0297	-2.7	inactive
Hsp27	1	-2.46	0.702	-2.63	active
Hsp27	2	-1.58	-1.1	-2.97	active
colt	1	-0.399	0.616	-0.00812	inactive
colt	2	0.775	1.25	0.468	inactive
snRNP-U1-C	1	0.0556	-0.339	-0.453	inactive
CG14397	1	0.416	0.216	1.24	inactive
CG4074	1	0.661	1.17	0.815	inactive
CG4074	2	1.29	1.08	0.343	inactive
CG9483	1	1.35	-0.0338	-0.483	inactive
CG9483	2	-3.55	-0.721	0.526	inactive
CG8668	1	-0.834	0.994	0.451	inactive
CG8668	2	0.761	-0.175	1.25	inactive
mRpL54	1	0.476	0.162	0.381	inactive
CG33644	1	-0.654	0.443	0.385	inactive
CG9114	1	-0.32	-1.1	-0.389	inactive
CG31697	1	-1.7	0.268	-0.804	inactive
CG32235	1	0.745	0.953	0.826	inactive
EloA	1	0.531	-1.22	-0.585	inactive
EloA	2	0.371	0.179	0.406	inactive
CG6661 + asRNA:CR42871	1	0.99	-0.335	1.06	inactive
CG6661 + asRNA:CR42871	2	-1.62	-6.73	0.662	inactive
CG33268	1	-1.9	-0.764	0.127	inactive
Nup54	1	0.281	0.574	0.214	inactive
CG42391	1	-0.544	0.0826	-2.29	inactive

Active calls (from the list above):
target	reagent	Wolbachia per cell robust z, rep 1	Wolbachia per cell robust z, rep 2	Wolbachia per cell robust z, rep 3	call
CycT	1	1.5	3.28	-0.728	active
CycT	3	2.1	1.8	3.17	active
Aladin	2	-2.63	-1.64	-1.28	active
Hsp27	1	-2.46	0.702	-2.63	active
Hsp27	2	-1.58	-1.1	-2.97	active
